Data as given in PubChem BioAssay AID504761 (Drosophila RNAi Screening Center, 2011).
Assay: 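Genome-wide fly cell screen for genes dengue virus requires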 (primary screen). Cells: D.Mel-2 cells from Drosophila. Knock-down reagent: long dsRNA against Drosophila genes. Challenge: infection with dengue virus type 2; dose and infection time not stated. Detection: 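Cells stained for dengue envelope protein and imaged; percent of infected cells per well on duplicate plates, ranked by infection, with stained nuclei counted for cell number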. Reading the numbers: infection score: higher = more virus-infected cells; cell count: higher = more cells in the well. Call rule: 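Very low infection ranking in both replicate wells (chance probability at most 0.065), then a retest showing infection dropped 1.5-fold or more at p below 0.05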. Meaning of the calls: active = confirmed: knock-down lowers infection; inactive = not picked or not confirmed.
The deposit covers about 22,000 reagents; this is a random part of those that have a named target and a result. Of all reagents, 116 (0.52%) got an active call. 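Calls depend on retest data that are not deposited; infection was ranked per plate without normalising between plates; the unit of the infection score is not given.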 Raw values are not corrected between plates. Entries without a mark were called inactive. No sequences are given here. The record does not give: the amount of reagent, the time to read-out.

no.	Gene	dsRNA	infection score, replicate 1	infection score, replicate 2	cell count, replicate 1	cell count, replicate 2
1	CG6983	DRSC10757	6.04	1.55	6710	7011
2	mRpS22 (mitochondrial ribosomal protein S22)	DRSC14488	4.69	14.1	6100	6347
3	mRpS22 (mitochondrial ribosomal protein S22)	DRSC28355	14.8	7.04	5125	1634
4	CG4615	DRSC17491	0.1	0.18	6794	6815
5	CG4615	DRSC18376	6.08	9.1	6165	5747
6	CG4615	DRSC26722	3.76	13.8	7075	6275
7	CG17349	DRSC02610	11.6	2.96	5538	6752
8	Syx13 (Syntaxin 13)	DRSC09836	0.32 (active)	0.22	6004	6291
9	mRpS24 (mitochondrial ribosomal protein S24)	DRSC28886	15.6	6.27	2071	1197
10	mRpL10 (mitochondrial ribosomal protein L10)	DRSC00312	17.6	23.9	4822	4731
11	Traf4 (TNF-receptor-associated factor 4)	DRSC00445	1.7	5.89	6511	6032
12	Traf4 (TNF-receptor-associated factor 4)	DRSC00794	7.04	16.6	6333	1586
13	CG18231	DRSC10307	7.5	7.31	6785	6742
14	CG12486 (retired record)	DRSC09888	1.18	1.93	6086	5953
15	CG12486 (retired record)	DRSC29802	7.82	7.76	6536	5905
16	Ilp5 (Insulin-like peptide 5)	DRSC08998	4.8	4.7	6334	6705
17	CG14450	DRSC11707	10.2	22.2	6264	5079
18	CG14450	DRSC29442	22	22	5009	4048
19	PolZ2 (DNA polymerase zeta subunit 2)	DRSC12325	4.13	7.72	6009	1477
20	CG13722	DRSC08331	3.84	4.88	6093	5323
21	CG13722	DRSC21616	0.54	3.02	5919	5961
22	CG13722	DRSC24663	7.41	5.49	5357	4610
23	Gbp3 (Growth-blocking peptide 3)	DRSC15206	0.34	1.57	6545	509
24	HERC2 (HECT and RLD domain containing protein 2)	DRSC20566	4.97	1.64	5937	5853
25	Keap1	DRSC15528	13.3	38.4	2936	5379
26	Keap1	DRSC29209	9.26	12.5	2537	2395
27	Bulli	DRSC10974	1.16	3.11	5838	5815
28	Septin5 (Septin 5)	DRSC06843	15.5	13.7	4845	6125
29	Septin5 (Septin 5)	DRSC29954	8.5	7.22	153	6040
30	CG31560	DRSC12136	13.3	1.14	5924	7199
31	GstE3 (Glutathione S transferase E3)	DRSC06673	12.2	13.9	3861	5513
32	CG15443	DRSC00455	2.55	1.31	6313	6946
33	Got1 (Glutamate oxaloacetate transaminase 1)	DRSC07177	9.67	9.81	5503	5689
34	Got1 (Glutamate oxaloacetate transaminase 1)	DRSC26159	6.16	1.62	6431	5812
35	RpL13A (Ribosomal protein L13A)	DRSC12265	3.44	2.49	1423	1525
36	RpL13A (Ribosomal protein L13A)	DRSC27297	15.5	8.86	1873	1761
37	Polr2E (RNA polymerase II, I and III subunit E)	DRSC06100	44.1	27.1	3860	4883
38	Cad89D (Cadherin 89D)	DRSC15022	2.79	1.3	6351	6397
39	Unc-115a (Uncoordinated 115a)	DRSC12749	7.73	4.58	5599	5420
40	Unc-115a (Uncoordinated 115a)	DRSC24907	6.1	8.86	6594	6431

4 entries from above, set out differently:
Gene	dsRNA	infection score, replicate 1	infection score, replicate 2	cell count, replicate 1	cell count, replicate 2
CG14450	DRSC11707	10.2	22.2	6264	5079
CG14450	DRSC29442	22	22	5009	4048
PolZ2 (DNA polymerase zeta subunit 2)	DRSC12325	4.13	7.72	6009	1477
CG13722	DRSC08331	3.84	4.88	6093	5323
